Paper PMC9486567, “Structural basis for the dual catalytic activity of the Legionella pneumophila ovarian tumor (OTU) domain deubiquitinase LotA” (The Journal of Biological Chemistry, 2022)

Biological target: 6×His tag-labeled ubiquitin (UniProt P0CG48 1-76)
Conditions: both partners purified

B1: LotA_(1-542) (domain or fragment)
chain: MAKTIKATGDGACLFNAVSIGLSVEILSGRLDSQLDTPGYQALLDEFAKHHPQFNPKSWKTLKEWLAYYNDTRDIELILAPVLFNLNQKYQDHLDEEILNELTNLVWKNKANIENGQAWFQLQNTGDLGEALFPKLENLDLKKDRAPLLDKLREILKDYKLELTRENVKQFLTEKAKELLSALKKKISSDPHAFQRGYSCDELKGMTDALAISLVENREEDITDNRIKIRLENQEEHWNVLCNEEDSERFLDSTPSRLKMTSLEAYRGDKQVSAPTSEQLDLIEEPGVFLRERTIDNPGLGNCAFYAFAIGLVNIIQEEAKYNRRTMFDRWVGLDRSISGQYDEILKLNLEDPDKELLDRLQSSLRIVTYQYQIRELRNVCVFRNGNYNRLTGNSNFVNFAALYYGDPLDTDSRFNPFADSVPILIKMANIDRDSVHPGHENDVLVPLFLDLLYGDTTNPADITLETEPKSDSPIITAMNNITQDFFWGTHLDLNYLAEAFEVNLHVLRNNSPIQEFVDIPERHTLTLTNSNNTHWTTQITT
  Kd: 3000 nM
